The values below come from publication PMC9486567.

The target of this assay is 6×His tag-labeled ubiquitin (UniProt P0CG48). Briefly: ITC. Conditions: domain or fragment.

As usually defined, the Kd is a measure of binding affinity in units of concentration. The low end stands for higher affinity, the high end for lower affinity.

“LotA_(1-542) (from UniProt Q5ZTB4 1-542)” gave a Kd of 3.35 µM.
